Compound potency records, mixed from different reports. Data source: NIAID ChemDB in PubChem.

Common to all: whole-cell or culture tests; species: Mycobacterium avium complex; read-out: MIC

Neighbouring rows are from separate reports.

structure | strain | value
CCOC(=O)c1ccc2c(c1)C(=O)c1nc3ccccc3c(=O)n1-2 | 19075 | 1 µg/mL
COc1ccccc1Sc1nc(Cl)nc2nc[nH]c12 | NJ211 | >12.8 µg/mL
O=C1c2ccccc2-n2c1nc1ncccc1c2=O | 101 | 5 µg/mL
CC[C@H]1OC(=O)[C@H](C)[C@@H](O[C@H]2C[C@@](C)(OC)[C@@H](OC(C)=O)[C@H](C)O2)[C@H](C)[C@@H](O[C@@H]2O[C@H](C)C[C@H](N(C)C)[C@H]2OC(=O)NNCc2ccc([N+](=O)[O-])cc2)C(C)(O)C[C@@H](C)/C(=N\OCCCC2CCCCC2)[C@H](C)[C@@H](O)[C@]1(C)O | 20096 (clarithromycin-resistant) | 3.13 µg/mL
COc1ccc(OC)c(Sc2ccncc2)c1 | NJ211 | >12.8 µg/mL
CO[C@H]1/C=C/O[C@@]2(C)Oc3c(C)c(O)c4c(O)c(c5c(c4c3C2=O)NC2(CCN(CC(C)C)CC2)N=5)=NC(=O)/C(C)=C\C=C\[C@H](C)[C@H](O)[C@@H](C)[C@@H](O)[C@@H](C)[C@H](OC(C)=O)[C@@H]1C | CIPT 140310005 | 0.1 µg/mL
CCOC(=O)c1ccc2c(c1)C(=O)c1nc3c(OC)cccc3c(=O)n1-2 | 19075 | 5 µg/mL
COc1ccc(CSc2ncccn2)cc1 | NJ211 | >12.8 µg/mL
CO[C@H]1/C=C/O[C@@]2(C)Oc3c(C)c(O)c4c(=O)c(c5oc6cc(N7CCN(CC(C)C)CC7)cc(=O)c6nc5c4c3=C2O)NC(=O)/C(C)=C\C=C\[C@H](C)[C@H](O)[C@@H](C)[C@@H](O)[C@@H](C)[C@H](OC(C)=O)[C@@H]1C | N-945 (HIV+) | 0.016 µg/mL
C[C@@H](O)[C@H]1C(=O)N2C(C(=O)O)=C(SCCN=CN)C[C@H]12 | CIPT 140310003 (smooth) | 10 µg/mL
CC[C@H]1OC(=O)[C@H](C)[C@@H](O[C@H]2C[C@@](C)(OC)[C@@H](OC(C)=O)[C@H](C)O2)[C@H](C)[C@@H](O[C@@H]2O[C@H](C)C[C@H](N(C)C)[C@H]2O)C(C)(O)C[C@@H](C)/C(=N\OCCCCc2ccccc2)[C@H](C)[C@@H](O)[C@]1(C)O | 20096 (clarithromycin-resistant) | 1.56 µg/mL
Cc1cccc2nc3n(c(=O)c12)-c1ccc(F)cc1C3=O | 19075 | 1 µg/mL
CCCCCCCCCCCCCCO/N=C1\[C@H](C)CC(C)(O)[C@H](O[C@@H]2O[C@H](C)C[C@H](N(C)C)[C@H]2O)[C@@H](C)[C@H](OC2C[C@@](C)(OC)[C@@H](O)[C@H](C)O2)[C@@H](C)C(=O)O[C@H](CC)[C@@](C)(O)[C@H](O)[C@H]1C | 20092 (clarithromycin-resistant) | >50 µg/mL
CC1(C)N=C(N)N=C(N)N1OCCCOc1cc(Cl)c(Cl)cc1Cl | FAR | ≤0.5 µg/mL
Cc1ccc2nc3n(c(=O)c2c1)-c1ccc(F)cc1C3=O | 19075 | 1 µg/mL
Cc1onc(-c2ccccc2Cl)c1C(=O)N[C@@H]1C(=O)N2[C@@H]1SC(C)(C)[C@@H]2C(=O)O | CIPT 140310003 (smooth) | 100 µg/mL
Clc1nc(Sc2ccc3ccccc3n2)c2[nH]cnc2n1.O | NJ211 | >12.8 µg/mL
CO[C@H]1/C=C/O[C@@]2(C)Oc3c(C)c(O)c4c(O)c(c5c(c4c3C2=O)NC2(CCN(CC(C)C)CC2)N=5)=NC(=O)/C(C)=C\C=C\[C@H](C)[C@H](O)[C@@H](C)[C@@H](O)[C@@H](C)[C@H](OC(C)=O)[C@@H]1C | N-980 (HIV+) | 0.125 µg/mL
CC1(C)N=C(N)N=C(N)N1OCCCOc1cc(Cl)c(Cl)cc1Cl | TDHOO5A | 1 µg/mL
CN[C@@H]1[C@H](O[C@H]2[C@H](O[C@H]3[C@H](O)[C@@H](O)[C@H](N=C(N)N)[C@@H](O)[C@@H]3N=C(N)N)O[C@@H](C)[C@]2(O)C=O)O[C@@H](CO)[C@H](O)[C@H]1O | CIPT 140310003 (rough) | 6 µg/mL
CC[C@H]1OC(=O)[C@H](C)[C@@H](O[C@H]2C[C@@](C)(OC)[C@@H](O)[C@H](C)O2)[C@H](C)[C@@H](O[C@@H]2O[C@H](C)C[C@H](N(C)C)[C@H]2O)[C@](C)(OC)C[C@@H](C)C(=O)[C@H](C)[C@@H](O)[C@]1(C)O | N-269 (HIV-) | 1 µg/mL
CC(C)(C)OC(=O)N1CCN(c2cc3nc4n(c(=O)c3cc2F)-c2ccc(I)cc2C4=O)CC1 | 19075 | 25 µg/mL
CC[C@H]1OC(=O)[C@H](C)[C@@H](OC(=O)Cc2ccccn2)[C@H](C)[C@@H](O[C@@H]2O[C@H](C)C[C@H](N(C)C)[C@H]2O)C(C)(O)C[C@@H](C)/C(=N\OCCCOc2ccccc2)[C@H](C)[C@@H](O)[C@]1(C)O | 20096 (clarithromycin-resistant) | 12.5 µg/mL
CCc1nc(N)nc(N)c1-c1ccc(Cl)cc1 | DW14 | 32 µg/mL
CCCCCCC(=O)O[C@H]1[C@H](C)[C@@H](O[C@@H]2O[C@H](C)C[C@H](N(C)C)[C@H]2O)C(C)(O)C[C@@H](C)/C(=N\OCCCOc2ccccc2)[C@H](C)[C@@H](O)[C@](C)(O)[C@@H](CC)OC(=O)[C@@H]1C | 20096 (clarithromycin-resistant) | 3.13 µg/mL
NNC(=O)c1ccncc1 | N-951 (HIV+) | 2 µg/mL
CC[C@H]1OC(=O)[C@H](C)[C@@H](OC2C[C@@](C)(OC)[C@@H](O)[C@H](C)O2)[C@H](C)[C@@H](O[C@@H]2O[C@H](C)C[C@H](N(C)C)[C@H]2O)C(C)(O)C[C@@H](C)/C(=N\OCCCc2ccccc2)[C@H](C)[C@@H](O)[C@]1(C)O | 20092 (clarithromycin-resistant) | 12.5 µg/mL
CCCCCCSc1nc(Cl)nc2nc[nH]c12 | NJ211 | >12.8 µg/mL
CC[C@H]1OC(=O)[C@H](C)[C@@H](OC(=O)C(C)C)[C@H](C)[C@@H](O[C@@H]2O[C@H](C)C[C@H](N(C)C)[C@H]2O)C(C)(O)C[C@@H](C)/C(=N\OCCCOc2ccccc2)[C@H](C)[C@@H](O)[C@]1(C)O | 20092 (clarithromycin-resistant) | 12.5 µg/mL
COc1cccc2c(=O)n3c(nc12)C(=O)c1cc(F)ccc1-3 | 19075 | 1 µg/mL
CC[C@H]1OC(=O)[C@H](C)[C@@H](OC2C[C@@](C)(OC)[C@@H](O)[C@H](C)O2)[C@H](C)[C@@H](O[C@@H]2O[C@H](C)C[C@H](N(C)C)[C@H]2O)C(C)(O)C[C@@H](C)/C(=N\OCCc2ccccc2)[C@H](C)[C@@H](O)[C@]1(C)O | 20096 (clarithromycin-resistant) | 25 µg/mL
O=C1c2ccc(Cl)cc2-n2c1nc1ccccc1c2=O | 19075 | 0.13 µg/mL

The first 5 rows once more:

structure | strain | value
CCOC(=O)c1ccc2c(c1)C(=O)c1nc3ccccc3c(=O)n1-2 | 19075 | 1 µg/mL
COc1ccccc1Sc1nc(Cl)nc2nc[nH]c12 | NJ211 | >12.8 µg/mL
O=C1c2ccccc2-n2c1nc1ncccc1c2=O | 101 | 5 µg/mL
CC[C@H]1OC(=O)[C@H](C)[C@@H](O[C@H]2C[C@@](C)(OC)[C@@H](OC(C)=O)[C@H](C)O2)[C@H](C)[C@@H](O[C@@H]2O[C@H](C)C[C@H](N(C)C)[C@H]2OC(=O)NNCc2ccc([N+](=O)[O-])cc2)C(C)(O)C[C@@H](C)/C(=N\OCCCC2CCCCC2)[C@H](C)[C@@H](O)[C@]1(C)O | 20096 (clarithromycin-resistant) | 3.13 µg/mL
COc1ccc(OC)c(Sc2ccncc2)c1 | NJ211 | >12.8 µg/mL